Pooled drug test results. Numbers come from NIAID ChemDB, via PubChem.

Common to all: whole-cell or culture tests; agent: Cytomegalovirus

Conditions beyond the fields shown may differ between rows. An empty or dashed field is not shown. ECn: concentration that inhibits the pathogen or its effect by n%.

| structure | strain | cells | method | read-out | result |
|---|---|---|---|---|---|
| O=C(O)P(=O)(O)O | - | - | - | EC50 | 19 µM |
| Nc1ncnc2c1ncn2CCOCP(=O)(O)O | DAVIS | HEL | cytopathic effect | EC50 | 70 µg/mL |
| CC(=O)OC[C@H]1O[C@@H](n2c(Cl)nc3cc(Cl)c(Cl)cc32)[C@H](OC(C)=O)[C@@H]1OC(C)=O | - | - | - | EC50 | 1.4 µM |
| O=C(O)P(=O)(O)O | DAVIS | HEL | cytopathic effect | EC50 | 20 µg/mL |
| Nc1ncnc2c1ncn2CCOCP(=O)(O)O | - | - | - | MIC | 25 µg/mL |
| Nc1nc(N)c2ncn(CC(CO)OCP(=O)(O)O)c2n1 | AD169 | HEL | cytopathic effect | EC50 | 10 µg/mL |
| Nc1ccn(C[C@@H](CO)OCP(=O)(O)O)c(=O)n1 | DAVIS | - | - | MIC | 1.3 µM |
| C[C@H](COc1cc(N)nc(N)n1)OCP(=O)(O)O | AD169 | - | cytopathic effect | EC50 | >180 µM |
| O=c1[nH]cnc2c1ncn2C[C@@H](CO)OCP(=O)(O)O | DAVIS | HEL | plaque count | EC50 | 70 µg/mL |
| O=C([O-])CN(CCN(CC(=O)[O-])CC(=O)[O-])CCN(CC(=O)[O-])CC(=O)[O-].[Mg+2].[Na+].[Na+].[Na+] | - | HFF | - | EC50 | 140 µM |
| Cc1cn(C[C@@H](CO)OCP(=O)(O)O)c(=O)[nH]c1=O | AD169 | HEL | cytopathic effect | EC50 | 200 µg/mL |
| C[C@H](Cn1cnc2c(N)ncnc21)OCP(=O)(O)O | DAVIS | - | cytopathic effect | EC50 | >350 µM |
| Nc1nc(N)c2ncn(CCOCP(=O)(O)O)c2n1 | - | - | - | MIC | 10 µg/mL |
| Nc1ncnc2c1ncn2CCOCP(=O)(O)O | DAVIS | - | cytopathic effect | EC50 | 95 µM |
| Nc1nc2cc(Cl)c(Cl)cc2n1[C@@H]1O[C@H](CO)[C@@H](O)[C@H]1O | - | - | - | EC50 | 0.2 µM |

2 of the rows above, restated:

structure,strain,cells,method,read-out,result
O=c1[nH]cnc2c1ncn2C[C@@H](CO)OCP(=O)(O)O,DAVIS,HEL,plaque count,EC50,70 µg/mL
O=C(O)P(=O)(O)O,-,-,-,EC50,19 µM